Results of unrelated studies side by side (data: NIAID ChemDB).

Common to all: growth or infection tests; species: Hepatitis C virus; endpoint: EC50

Conditions beyond the fields shown may differ between rows.

SMILES,mutations,strain,read by,cells,value
CCOc1nc(NCc2cccnc2)nc2ccc(-c3ccc(F)cc3)nc12,-,-,replicon,-,<0.1 µM
CC1(C)CC(=O)C2=C(C1)Nc1c(O)cccc1N(C(=O)c1ncccn1)[C@H]2c1ccc(OCc2ccccc2)cc1F,-,1b,luciferase / reporter gene / replicon,-,0.27 µM
CNC(=O)c1c(-c2ccc(F)cc2)oc2cc(N)c(O)cc12,-,-,replicon,Huh7,<30 µM
CC(=O)N1c2cccc(O)c2NC2=C(C(=O)CC(C)(C)C2)C1c1cccc(Cl)c1,-,1b,luciferase / reporter gene / replicon,-,4.97 µM
CCCCCOc1ccc(N(C(=O)c2cc(C)on2)c2nc(-c3ccc(Cl)s3)cs2)cc1C(F)(F)F,-,-,-,-,<1 µM
CNC(=O)c1c(-c2ccc(F)cc2)oc2cc(N(C)S(C)(=O)=O)c(OCc3nnsc3Cl)cc12,-,-,replicon,Huh7,<1 µM
Cc1cc(-c2cc(N(C(=O)C3CCC(C)CC3)C(C)C)c(C(=O)O)s2)cnc1NC(=O)c1cscn1,-,1a,replicon,-,<0.5 µM
COC(=O)N[C@H](C(=O)N1CCC[C@H]1c1ncc(-c2ccc(-c3ccc(-c4cnc([C@@H]5CCCN5C(=O)[C@@H](NC(=O)OC)C(C)C)[nH]4)cc3)cc2)[nH]1)C(C)C,Y93C,1a,luciferase,Lunet,0.00504 µM
CC1(C)CC(=O)C2=C(C1)Nc1c(O)cccc1NC2c1ccc(OCc2cccc(Br)c2)cc1Cl,-,1b,luciferase / reporter gene / replicon,-,3.29 µM
NC(=S)Nc1ccc2c(c1)Cc1cc(N(Cc3ccccc3)Cc3ccccc3)ccc1-2,-,-,reporter gene / fluorescence,Ava5-EG(delta4AB)SEAP,0.001–1 µM
CCCCOc1ccc(N(C(N)=O)c2nc(-c3ccc(F)cc3)cs2)cc1C(F)(F)F,-,-,-,-,<1 µM
NC(=S)Nc1cccc(OCCCCCOc2ccc3ncccc3c2)c1,-,-,reporter gene / fluorescence,Ava5-EG(delta4AB)SEAP,0.001–1 µM
NS(=O)(=O)c1ccc(CNc2nc(NCC(F)(F)F)c3nc(-c4ccc(F)cc4)ccc3n2)cc1,-,-,replicon,-,<0.1 µM
CC1CCC(C(=O)N(c2cc(-c3ccc(NC(=O)c4cnccn4)cc3)sc2C(=O)O)C(C)C)CC1,-,1a,replicon,-,<0.5 µM
CCOc1nc(NCc2ccc(F)cc2)nc2ccc(-c3ccc(C(=O)NCCN(C)C)cc3)nc12,-,-,replicon,-,<0.1 µM
CNC(=O)c1c(-c2ccc(F)cc2)oc2ccc(F)cc12,-,-,replicon,Huh7,<30 µM
CCCCCOc1ccc(N(C(N)=O)c2nc(-c3ccc(F)cc3)cs2)cc1F,-,-,-,-,<1 µM
CC1CCC(C(=O)N(CC2CC2)c2cc(-c3ccc(NC(=O)c4cn(C)cn4)cc3)sc2C(=O)O)CC1,-,1b,replicon,-,<0.5 µM
CCOc1nc(NCc2ccc(F)cc2)nc2ccc(-c3ccc(NC(=O)C(C)(C)N)cc3)nc12,-,-,replicon,-,<0.1 µM
NC(=S)Nc1cccc(OCCCCCOc2ccccc2-c2cc(F)cc(F)c2)c1,-,-,reporter gene / fluorescence,Ava5-EG(delta4AB)SEAP,0.001–1 µM
CCc1ccc(-c2oc3ccc(F)cc3c2C(=O)NC)cc1,-,-,replicon,Huh7,<10 µM
CC(C)NC(=O)c1ccc(-c2ccc3nc(N)nc(OC(C)C)c3n2)cc1,-,-,replicon,Huh7,<0.3 µM
CC1CCC(C(=O)N(c2cc(-c3ccc(NC(=O)c4cnc[nH]4)cc3)sc2C(=O)O)C(C)C)CC1,-,1b,replicon,-,<0.5 µM
NC(CO)C(=O)Nc1ccc(-c2ccc3nc(NCc4ccc(S(N)(=O)=O)cc4)nc(NCC(F)(F)F)c3n2)cc1,-,-,replicon,-,<0.1 µM
C=CCOc1cc2c(C(=O)NC)c(-c3ccc(F)cc3)oc2cc1N(CC=C)S(C)(=O)=O,-,-,replicon,Huh7,<1 µM
NC(=S)Nc1cccc(OCCCCCOc2cccc(C(O)c3ccccc3)c2)c1,-,-,reporter gene / fluorescence,Ava5-EG(delta4AB)SEAP,0.001–1 µM
CC1(C)CC(=O)C2=C(C1)Nc1c(O)cccc1N(C(=O)CC#N)[C@@H]2c1ccc(OCc2ccccc2)cc1Cl,-,1b,luciferase / reporter gene / replicon,-,4.15 µM
CC1CCC(C(=O)N(c2cc(-c3ccc(NC(=O)c4ccc(F)cc4)c(Cl)c3)sc2C(=O)O)C(C)C)CC1,-,1b,replicon,-,<0.5 µM
CN(C)c1nc(NCc2ccc(F)cc2)nc2ccc(-c3ccc(F)cc3)nc12,-,-,replicon,-,0.25–2 µM
NC(=O)COc1ccc2c(c1)S(=O)(=O)N=C(c1c(O)c3cc(F)ccc3n(CCC3CC3)c1=O)N2,-,1a 34161,replicon,-,0.93 µM
NC(=S)Nc1ccc2c(c1)C(=O)c1ccccc1-2,-,-,reporter gene / fluorescence,Ava5-EG(delta4AB)SEAP,0.001–1 µM
CNC(=O)c1c(-c2ccc(F)cc2)oc2cc(N(C)C)c(OC(C)C)cc12,-,-,replicon,Huh7,<1 µM
NS(=O)(=O)c1ccc(CNc2nc(C3CC3)c3nc(-c4ccc(C(=O)NC5CC5)cc4)ccc3n2)cc1,-,-,replicon,-,<0.1 µM
Cc1ccnc(C(=O)N2c3cccc(O)c3NC3=C(C(=O)CC(C)(C)C3)[C@@H]2c2ccc(OCc3ccccc3)cc2F)c1,-,1b,luciferase / reporter gene / replicon,-,0.78 µM
CNC(=O)c1c(-c2ccc(F)cc2)oc2cc(NS(C)(=O)=O)c(-c3cccs3)cc12,-,-,replicon,Huh7,<1 µM
CC(C)Oc1nc(N)nc2ccc(-c3ccc(C(=O)NC4CCCCC4)cc3)nc12,-,-,replicon,Huh7,>1 µM
CCCCCCOc1ccc(N(C(N)=O)c2nc(-c3ccccn3)cs2)cc1,-,-,-,-,<1 µM

A second listing of 2 rows from above:

SMILES,mutations,strain,read by,cells,value
CC1(C)CC(=O)C2=C(C1)Nc1c(O)cccc1N(C(=O)c1ncccn1)[C@H]2c1ccc(OCc2ccccc2)cc1F,-,1b,luciferase / reporter gene / replicon,-,0.27 µM
CNC(=O)c1c(-c2ccc(F)cc2)oc2ccc(F)cc12,-,-,replicon,Huh7,<30 µM

Blank or dashed fields: not listed here. ECn: concentration that inhibits the pathogen or its effect by n%. Two numbers with a dash give a range or band.